Experimental data reported in the supplement of paper PMC9931576.
Human monoclonal antibodies against the spike receptor-binding domain (heavy:light variable regions). IC50 against pseudoviruses bearing the spike of naturally observed variants; lower = stronger; >10 µg/ml means not reached at the top dose. No active / inactive call. The stated detection limit is 0.0005 µg/ml; values near or below 0.001 µg/ml lie at the floor of the assay.

B1: COV2-2531 (protein)
chain 1: QVQLQESGPGLVKPSETLSLTCSVSGGSIRSYFWNWVRQPPGKGLEWIGYIYYSGSTNYKPSFKSRVTISLDTSKNQISLKLSSVTAADTAVYYCARATWLRDAFGIWGQGTMVTVSS
chain 2: NFMLTQPHSVSESPGKTVTISCTGNSGSIASNYVQWYQQRPGSAPTTVIYEDSQRPSGVPDRFSGSIDSSSNSASLTISGLKTEDEADYYCQSFDSGNVVFGGGTKLTVL
B2: BD56-1555 (protein)
chain 1: EALLVESGGGLVKPGGSLRLSCAASGFSFTNAWMNWVRQAPGKGLEWVGLIKSKIDGGTPEYAAPVKDRFTISRDDSKNTLFLQMNSLNIEDTAVYYCWFGDFLNYYHYGMDVWGQGTTVIVSS
chain 2: DIQMTQSPSTLSASVGDRVTITCRASQSISSWLAWYQQKPGKAPKVLIYKASNLQSGVPSRFSGSGSGTEFTLTISSLRPDDSATYYCQQYNSYLYTFGQGTKLEIK
B3: BD56-1556 (protein)
chain 1: QLQLQESGPGLVKPSETLSLTCTVSGGSISSNNYYWGWIRQPPGKGLEWVESIYYTGTTYYNPSLKSRVTISVDTSKNQFSLRLSSVTAADTAVYYCARHGTLMVVDSFDYWGQGTLVTVSS
chain 2: QSVLTQPPSVSGAPGQRVTISCTGSSSNIGADYDVHWYQQFPGTAPKLLISGNTNRPSGVPDRFSGSKSGTSASLAITGLQADDEAIYYCQSHDSSLRGWVFGGGTKLTVL
B4: BD56-1547 (protein)
chain 1: QVQLVESGGGVVQPGRSLRLSCAASGFTFSSYALHWVRQAPGKGLEWVAAISFDGSNIYYADSVKGRFTVSRDNSKNTLYLQMNSLRAEDTAVYFCARDWGYAYTYGSSSDYWGQGALVTVSS
chain 2: DIQMTQSPSTLSASVGDRVTITCRASQSLTSWLAWYQQKPGRAPKLLIYQASSLESGVPSRFSGSGSGTEFTLTISSLQPADFATYYCQQYKSYPYTFGQGTKLEIK
B5: BD56-1551 (protein)
chain 1: EVQLVESGGGLVQPGRSLRLSCAASGFTFRDYAMHWVRQVPGKGLEWVSGINWSSDKIHYADSVRGRFTISRDNAKNSLYLQMNSLRTEDTALYYCAKDIADQQQDLGDDYYYYYGMDVWGQGTTVTVSS
chain 2: SYDLTQPPSVSVSPGQTASITCSGHKLGDKYVSWYQQKPGQSPVLVIYQDSKRPSGIPERFSGSNSGKTATLTVSGTQAMDEADYYCQAWDSSISYVFGTGTKVTVL
B6: BD56-1554 (protein)
chain 1: EVQLVESGGGLVQPGRSLRLSCAASGFTFDDYGMHWVRQAPGMGLEWVSGISWSSATIDYADSVKGRFTISRDNAKNSLYLEMNSLRVEDTALYYCAKHVRRTTWLKDAFDLWGQGTMVTVSS
chain 2: DIVMSQSPDSLAVSLGERATINCKSSQSVLYSSTNNNYLAWYQQKPGQPPKLLIYWASTRESGVPDRFIGSGSGTDFTLTISSLQAEDVAVYYCQQYYTTPTFGQGTKVEIK
B7: BD56-1565 (protein)
chain 1: QVQLVQSGAEVKKPGASVKVYCKASRYRFNDHYVHWVRQAPGQGLEWMGIINPSAGSTTYERKFQGRVSMTTDTSTTTVFMELSSLRSEDTAVYFCARDSGFIPDRDAFDIWGQGTMVTVSS
chain 2: DIQMTQSPSTLSASVGDRVTITCRASQSISSRLAWYQQKPGKAPKLLIYKTSNLESGVPSRISGSGSGTEFTLTISSLQPDDFATFYCQQYDSFPYTFGQGTELEIK
B8: BD56-1569 (protein)
chain 1: QVHLVESGGGVVQPGRSLRLSCAASGFTFRHYGMHWVRQAPGKGLEWVAATLYDGSSNYYADSVKGRFIISRDNSKNTLYLQMNSLRVEDTAVYYCAKLGAPYCGGGNCYSGYLDYWGQGTLVTVSS
chain 2: DIQMTQSPSSLSASVGDRVTITCQASQDVSHYLNWYQHKPGKAPKLLIYDASNLETGVPSRFSGSASGTDFTFTISSLQPEDFATYYCQQYQNLPLTFGGGTKVEIK
B9: COV2-2919 (protein)
chain 1: QVTLRESGPALVKPTQTLTLTCTFSGFSLSTSGMCLSWIRQPPGKALEWLARIDWDDDKYYSTSLETRLTISKDTSKNQVVLTMTNMDPVDTGTYYCARTMATINAFDIWGQGTMVTVSS
chain 2: DIQMTQSPSSLSASAGDRVTITCRASQSIRYYLNWYQQKPGKAPKLLIYAASSLQSGVPSRFSGSGSGTDFTLTISSLQPEDFAAYYCQQSFSTPRTFGQGTKLEIK
B10: BD56-1544 (protein)
chain 1: QVQLQESGPGLVKPSQTLSLTCTVSGDSISSGSYYWSWIRQHPEKGLEWIGYIYYSGSTYYNPSLKTRLSMSLDISKNQFSLRLSSVTAADTAVYYCVRERILMVLTTTPYYYGVDVWGQGTTVTVSS
chain 2: DIVMTQSPATLSVSPGERATLSCRASQSIGSDLAWYQQRPGQAPRLLIYGASTRATGVPARFSGSGSGTDFTLTISSLQSEDFAIYYCQRYNNWPPWTFGQGTKVEIK
B11: BD56-1568 (protein)
chain 1: QVQLQESGPGLVKPSQTLSLTCTVSGGSIISGTHYWSWIRQPAGMGLEWIGHIYTSGSTNYNPSLKSRVAFSVDTSKNQFSLKLSSVTASDTAVYYCAREVFRYFDWLYYFDYWGQGTLVTVSS
chain 2: SSELTQDPAVSVALGQTVRITCQGDSLRSYYATWYQQRPGQAPILVIYGQNNRPSGIPDRFSGSSSGNTASLTITGAQAEDEADYYCNSRDSSGHSYVFGTGTKVTVL
B12: BD56-1562 (protein)
chain 1: QVQLVESGGGVIQPGRSVRLSCAASGFTFRHYGMHWVRQSPGKGLEWVAVISYDGSHKYYADSVKGRFTISRDNSKSVLYLQLNSLGPEDTAVYYCAKKDGGPYCGGGDCYSGLIDYWGQGTLVTVSS
chain 2: QSVLTQPPSVSAAPGQKVTISCSGSSSNIGNNFVSWYQQLPGTAPELLIYDNNERPSGIPDRFSGSKSGTSATLAITGLETGDEADYYCGTWDSSLTGMVFGGGTKLTVL

target: SARS-CoV-2 Omicron BA.1 spike pseudovirus; test: pseudovirus neutralization IC50; higher = weaker neutralization
Protocol: (§1)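 Single-round VSV luciferase pseudovirus mixed with antibody dilutions for 1 h and put on Huh-7 cells for about a day; IC50 from the dose curve.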

Binder | pseudovirus neutralization IC50 [µg/mL]
B1 | > 10
B2 | 1.01
B3 | > 10
B4 | > 10
B5 | 1.98
B6 | > 10
B7 | > 10
B8 | 1.54
B9 | > 10
B10 | > 10
B11 | > 10
B12 | > 10

target: SARS-CoV-2 Omicron BA.2 spike pseudovirus; test: as above
Protocol: as §1

Binder | pseudovirus neutralization IC50 [µg/mL]
B1 | > 10
B2 | 1.69
B3 | > 10
B4 | > 10
B5 | 2.31
B6 | > 10
B7 | > 10
B8 | 3.11
B9 | > 10
B10 | > 10
B11 | > 10
B12 | > 10

target: SARS-CoV-2 Omicron BA.2.75 spike pseudovirus; test: as above
Protocol: as §1

Binder | pseudovirus neutralization IC50 [µg/mL]
B1 | > 10
B2 | > 10
B3 | > 10
B4 | > 10
B5 | 0.974
B6 | > 10
B7 | > 10
B8 | 4.24
B9 | > 10
B10 | > 10
B11 | > 10
B12 | > 10

target: SARS-CoV-2 Omicron BA.5 spike pseudovirus; test: as above
Protocol: as §1

Binder | pseudovirus neutralization IC50 [µg/mL]
B1 | > 10
B2 | > 10
B3 | > 10
B4 | > 10
B5 | 1.27
B6 | > 10
B7 | > 10
B8 | 2.04
B9 | > 10
B10 | > 10
B11 | > 10
B12 | > 10

target: SARS-CoV-2 Omicron BQ.1.1 spike pseudovirus; test: as above
Protocol: as §1

Binder | pseudovirus neutralization IC50 [µg/mL]
B1 | > 10
B2 | > 10
B3 | > 10
B4 | > 10
B5 | 2.55
B6 | > 10
B7 | > 10
B8 | 2.33
B9 | > 10
B10 | > 10
B11 | > 10
B12 | > 10

target: SARS-CoV-2 Omicron XBB spike pseudovirus; test: as above
Protocol: as §1

Binder | pseudovirus neutralization IC50 [µg/mL]
B1 | > 10
B2 | > 10
B3 | > 10
B4 | > 10
B5 | 2.48
B6 | > 10
B7 | > 10
B8 | 2.53
B9 | > 10
B10 | > 10
B11 | > 10
B12 | > 10

target: SARS-CoV-2 early D614G spike pseudovirus; test: as above
Protocol: as §1

Binder | pseudovirus neutralization IC50 [µg/mL]
B1 | 1.01
B2 | > 10
B3 | > 10
B4 | > 10
B5 | 2.61
B6 | > 10
B7 | > 10
B8 | 2.21
B9 | 0.672
B10 | > 10
B11 | > 10
B12 | 6.66
